Assay: in vitro
Settings: human

**Q.** Which CC50 does the source give for `Cc1cc(O)c(=O)c(O)cc1S(=O)(=O)c1ccccc1` [Compound 336] here?
**A.** 45.4 µM
